“And” between values parts separate entries of the source, which are not always exact repeats. Identical values can stand only once. This is a selection; strong and weak results do not stand in their true shares. The source made the active and inactive calls. Cut-off read from the data, not from the text of the source: active = inhibition above about 50%; inactive = the rest.
Biological target: Glycoprotein 42 (Epstein-Barr virus (strain AG876)) (UniProt Q1HVG2)
Experiment: EBV glycoprotein 42 binding blockers – biochemical, uHTS, fluorescence polarization, primary screen (AID 1085)
Settings: Fluorescence polarization binding assay, mP read-out; active compounds read high; tested at 21.74 µM

Amino acid sequences for entries named in this document (tags omitted). A change or cut given only in a name is not applied to a line headed by its entry.
UniProt Q1HVG2: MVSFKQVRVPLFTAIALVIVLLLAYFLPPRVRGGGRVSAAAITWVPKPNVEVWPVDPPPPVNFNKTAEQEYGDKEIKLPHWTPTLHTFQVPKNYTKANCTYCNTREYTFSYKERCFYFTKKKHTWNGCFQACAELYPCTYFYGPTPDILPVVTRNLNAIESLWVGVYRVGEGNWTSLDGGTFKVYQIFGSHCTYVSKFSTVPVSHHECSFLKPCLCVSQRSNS

SMILES | inhibition
O=C(/C=C/c1ccccc1)OC1CN2CCC1CC2 (stereo not drawn) | inactive: -17.2%
CN(C)C1(CNC(=O)c2ccc(S(C)(=O)=O)cc2)CCCCC1 | inactive: 30.7%
Cc1nn(-c2ccccc2)c2c1P(=O)(N1CCOCC1)N(C)C(c1ccccc1)=N2 (stereo not drawn) | inactive: 13.1%
CC1CCC(C(C)C)C(OP(=O)(Nc2ccccn2)c2ccccc2)C1 (stereo not drawn) | inactive: -17%
Cc1ccc(OCC(=O)OC2CN3CCC2CC3)cc1 (stereo not drawn) | inactive: -7.82%
O=[As](O)(c1cccs1)c1cccs1 | inactive: 3.28%
O=P1(Nc2ccc(Br)cn2)COc2ccccc2OC1 | inactive: -28.7%
Nc1cccc([As](=O)(O)c2ccccc2)c1 | inactive: -14.9%
O=P1(Nc2ncccn2)COc2ccccc2OC1 | inactive: -18.5%
Clc1n[nH]nc1-c1nn[nH][15n]1 | inactive: -3.74%
CC(C)(C)C(=O)NC(Sc1ncccn1)C(Cl)(Cl)Cl (stereo not drawn) | inactive: -2.98%
CCOP(=O)(Nc1ccc(C)cn1)OCC | inactive: -16.2%
O=P1(Nc2ccccn2)COc2ccccc2OC1 | inactive: 9.78%
O=[As](O)(c1ccccc1Br)c1ccccc1Br | inactive: -1.57%
CC(C)/C=N\N=C(\N)N[N+](=O)[O-] | inactive: 1.11%
CN(C(=O)Cc1ccc(Cl)c(Cl)c1)[C@@H]1CCCC[C@H]1N1CCCC1 | inactive: -15.8%
Cc1cccc(OCC(=O)OC2CN3CCC2CC3)c1 (stereo not drawn) | inactive: -20.3%
O=[As](O)(c1cccc(O)c1)c1cccc(O)c1 | inactive: 0.88%
O=[As](O)(O)c1cccnc1 | inactive: -3.62%
COc1cc(C(=O)NCC2(N3CCOCC3)CCCCC2)cc(Cl)c1OC(C)C | inactive: -9.88%
O=C(OC1CN2CCC1CC2)c1ccc(Cl)cc1 (stereo not drawn) | inactive: -7.33%
COc1cc(C2NCCC3(OCCO3)C2(C)C)cc(OC)c1OC (stereo not drawn) | inactive: -21.2%
CCOP(=O)(Nc1cccc2ccccc12)OCC | inactive: 6.57%
CCCOP(=S)(Nc1nc(N)cc(=O)[nH]1)OCCC | inactive: -5.47%
Cc1ccc(NCCc2c([N+](=O)[O-])cc([N+](=O)[O-])cc2[N+](=O)[O-])cc1 | inactive: -4.07%
Nc1cccc2c([As](=O)(O)O)cccc12 | inactive: 19.3%

SMILES | inhibition
Nc1ccccc1[As](=O)(O)c1ccccc1 | inactive: -10.2%
O=C(O)COc1ccc([As](=O)(O)O)cc1[N+](=O)[O-] | inactive: -6.41%
CS(=O)(=O)c1cc([N+](=O)[O-])c2no[n+]([O-])c2c1 | inactive: -44.9%
CCOP1(=S)c2c(C)nn(CCC#N)c2N=C(c2ccccc2F)N1C (stereo not drawn) | inactive: -5.44%
O=P(Nc1nccs1)(Oc1ccccc1)Oc1ccccc1 | inactive: -5.42%
O=P(Nc1nccs1)(c1ccccc1)c1nc2ccccc2s1 (stereo not drawn) | inactive: -15.7%
O=[N+]([O-])c1ccc2c(c1)nnn2O | inactive: 0.79%
CN(C(=O)Cc1ccccc1)[C@@H]1CC[C@]2(CCCO2)C[C@H]1N1CCCC1 | inactive: -11.8%
CCOP1(=S)c2c(C)nn(CCC#N)c2N=C(c2ccc(F)cc2)N1C (stereo not drawn) | inactive: -6.82%
NC(=O)Nc1ccc([As](=O)(O)O)cc1 | inactive: -10.4%
Cc1ccc2nc3c(c(C)c2c1)CC(C(Cl)Cl)S3 (stereo not drawn) | inactive: 2.78%
Cc1ccc(OP(=O)(Nc2ccc([N+](=O)[O-])cn2)Oc2ccc(C)cc2)cc1 | inactive: -1.4%
C[As](=O)(O)c1cccc(C(=O)O)c1 | inactive: -17.6%
O=[As](O)(c1ccc(O)cc1)c1ccccc1O | inactive: -9.23%
CC(C)NC(=O)NP(=O)(Oc1ccccc1)Oc1ccccc1 | inactive: -2.7%
CCN(CC)C(=S)SC(NC=O)C(Cl)(Cl)Cl (stereo not drawn) | inactive: -14.9%
O=[N+]([O-])c1cc([N+](=O)[O-])c(-c2ccn[nH]2)s1 | inactive: -10.6%
CC(C)c1ccc(OP(=O)(Nc2ccccn2)Oc2ccccc2F)cc1 (stereo not drawn) | inactive: 1.8%
ClCCSc1nnc(-c2cccnc2)o1 | inactive: -8.86%
COc1ccc2nc(NP(=O)(c3ccccc3)c3ccccc3)sc2c1 | inactive: -7.3%
COc1cc(I)ccc1[As](=O)(O)O | inactive: -7.91%
O=C(OC1CN2CCC1CC2)C12CC3CC(CC(C3)C1)C2 (stereo not drawn) | inactive: -15.4%
Cc1cc(=O)[nH]c(N[N+](=O)[O-])n1 | inactive: -5.85%
Cc1c2c(nc3ccccc13)SC(C(Cl)Cl)C2 (stereo not drawn) | inactive: -6.08%
COc1ccc(N/C(=N/P(=O)(N2CCOCC2)N2CCOCC2)N2CCOCC2)cc1 | inactive: -14.6%
O=C(COc1ccccc1)OC1CN2CCC1CC2 (stereo not drawn) | inactive: -3.19%

SMILES | inhibition
COP1(=S)c2c(C)nn(CCC#N)c2N=C(c2ccc(F)cc2)N1C (stereo not drawn) | inactive: -16.4%
CCC(C)N(CC(C)C)C(=S)SC(NC(C)=O)C(Cl)(Cl)Cl (stereo not drawn) | inactive: -22.1%
CCOC(=O)c1ccc(NC(=O)C(C)(CCl)SC)cc1 (stereo not drawn) | inactive: -19.6%
Cc1cc(SC(NC(=O)c2ccccc2)C(Cl)(Cl)Cl)nc(C(C)C)n1 (stereo not drawn) | inactive: 3.66%
CCOC(=O)Nc1ccc([As](=O)(O)O)c(O)c1 | inactive: -5.48%
O=[N+]([O-])c1ccc(Nc2ccc(Oc3ccc([N+](=O)[O-])cc3[N+](=O)[O-])cc2)c([N+](=O)[O-])c1 | inactive: -9.48%
O=P(Nc1ccccn1)(c1cccc2ccccc12)c1cccc2ccccc12 | inactive: -1.67%
Cc1cc(SC(NC=O)C(Cl)(Cl)Cl)ncn1 (stereo not drawn) | inactive: -1.89%
CCOC(=O)Nc1cccc([As](=O)(O)O)c1 | inactive: -0.8%
O=C(Nc1cc([As](=O)(O)O)ccc1O)c1ccccc1 | inactive: 0.04%
O=[N+]([O-])c1cccc(NC2=NCC(CBr)S2)c1 (stereo not drawn) | inactive: -3.55%
O=C(O)CNc1ccc([As](=O)(O)O)cc1 | inactive: -2.05%
CC(C)(C)C(=O)NC(Sc1ccncn1)C(Cl)(Cl)Cl (stereo not drawn) | inactive: -6.84%
O=[N+]([O-])c1ncn(CCn2ncnc2[N+](=O)[O-])n1 | inactive: -6.96%
O=[N+]([O-])c1cccc2n[nH]nc12 | inactive: -4.45%
CC(=O)N1C2C3N(C(C)=O)C1C1N(C(C)=O)C(C(N1C(C)=O)N3C(C)=O)N2C(C)=O | inactive: -12.1%
Cc1ccc(NP(=O)(Oc2ccccc2)Oc2ccccc2)nc1 | inactive: -9.3%
CCc1nc2c(n1)c1c(non1O)c1c2no[n+]1[O-] | inactive: -24.2%
O=[N+]([O-])c1cc([N+](=O)[O-])c(CCNc2ccccc2)c([N+](=O)[O-])c1 | inactive: 0.25%
COc1ccc(C2=NCC(CBr)S2)cc1 (stereo not drawn) | inactive: -25.4%
CC(C)=N/N=C(\N)N[N+](=O)[O-] | inactive: -16.8%
CN(C)C(=O)OCCc1n(C)cc[n+]1C | inactive: 6.39%
CC1CCN(C(=O)Oc2c(Cl)cc(Cl)c3cccnc23)CC1 | inactive: -11.1%
Nc1ccc([As](=O)(O)c2ccc(N)cc2)cc1 | inactive: -19.9%
C[N+]1=C2C=CC=CC=C2SC12C([N+](=O)[O-])=CC([N+](=O)[O-])=C[C-]2[N+](=O)[O-] (stereo not drawn) | inactive: -31.8%
CCN(/C(=N/P(=O)(N1CCOCC1)N1CCOCC1)N1CCOCC1)c1ccc(OC)cc1 | inactive: 3.33%

SMILES | inhibition
COc1ccccc1OP(=O)(Nc1ccc(C)cn1)Oc1ccccc1OC | inactive: -20.4%
Cc1ccc(OP(=O)(Nc2nccs2)Oc2ccc(C)cc2)cc1 | inactive: -9.58%
CN1CCCC(OC(=O)C(c2ccccc2)c2ccccc2)C1 (stereo not drawn) | inactive: -1.39%
Clc1ccc(Cl)c(NC2=NCC(CBr)S2)c1 (stereo not drawn) | inactive: -28.2%
NC(=O)c1cc([N+](=O)[O-])cc([N+](=O)[O-])c1N | inactive: 3.13%
Cc1ccc(N/C(=N/P(=O)(N2CCOCC2)N2CCOCC2)N2CCOCC2)cc1 | inactive: -12%
Nc1cc(N)c2nonc2c1[N+](=O)[O-] | inactive: -22.3%
CC(C)CC(=O)NC(Sc1ccc(Cl)cc1)C(Cl)(Cl)Cl (stereo not drawn) | inactive: -10%
Oc1ccccc1CNc1ccccn1 | inactive: -19.2%
O=C(NC(Sc1ccncn1)C(Cl)(Cl)Cl)c1ccccc1 (stereo not drawn) | inactive: -6.47%
Cc1c2non([O-])c-2c(C)[n+](=O)[n+]1[O-] | inactive: -18.8%
Cc1cc(SC(NC(=O)c2ccc(F)cc2)C(Cl)(Cl)Cl)ncn1 (stereo not drawn) | inactive: -16.6%
CCOP(=O)(Nc1ccccc1)OCC | inactive: -16.6% and inactive: -11.8%
Cc1ccc(NP(=O)(Oc2ccccc2F)Oc2ccccc2F)nc1 | inactive: 3.77%
CC(=O)Nc1ccc([As](=O)(O)O)cc1 | inactive: -6.64%
O=C(O)c1ccccc1[As](=O)(O)O | inactive: -11.7%
O=P(Nc1nc2ccc(Cl)cc2s1)(c1ccccc1)c1ccccc1 | inactive: -2.63%
CCN(N=Nc1nonc1N)c1nonc1N | inactive: -6.09%
Nc1cccc2ccc([As](=O)(O)O)cc12 | inactive: 0.97%
CCNC(=S)/N=C(\N)N[N+](=O)[O-] | inactive: 1.65%
O=C(NC1CCS(=O)(=O)C1)NP(=S)(Oc1ccccc1)Oc1ccccc1 (stereo not drawn) | inactive: 7.98%
c1ccc(-c2nn[nH]n2)c(-c2nn[nH]n2)c1 | inactive: -7.16%
Cc1ccc(NP(=O)(Oc2cccc(C)c2)Oc2cccc(C)c2)nc1 | inactive: -23.2%
CCOC(=O)NC(Sc1ccccc1)C(Cl)(Cl)Cl (stereo not drawn) | inactive: 4.38%
Cc1ccccc1OP(=O)(Nc1ccccn1)Oc1ccccc1C | inactive: -15.2%
